A mixed list of measured activities; the numbers were collected in NIAID ChemDB.

Shared fields: whole-cell or culture tests; agent: Mycobacterium tuberculosis

An empty or dashed field is not shown. MIC50, MIC90 and the like: level of inhibition, or share of isolates inhibited. Inhibition is in % at the dose shown (toxicity tests: loss of growth or viability). Neighbouring rows are from separate reports. MIC bound: limit read from a one-dose screen. ECn: concentration that inhibits the pathogen or its effect by n%.

compound,strain or isolate,conditions,dose,read by,endpoint,result
O=C(O)CCc1cnc(C2CCCCC2)[nH]1,H37Rv,,6.25 µg/mL,,inhibition,0%
COc1ccc(C(=O)/C=C/c2cccnc2)cc1,H37Rv,,,,MIC,>12.5 µg/mL
O=c1oc2ccc(F)cc2c(=S)n1-c1ccccc1,My 331/88,14 d,,,MIC,2 µM
Cc1cccc(C2SCC(=O)N2C(=O)NCCCN2c3ccccc3Sc3ccccc32)c1,H37Rv,,25 µg/mL,agar,inhibition,28%
CC(=O)N1N=C(c2ccc(OCC(O)CN3CCN(CC(O)COc4ccc(C5=NN(C(C)=O)C(c6ccccc6)C5)cc4)CC3)cc2)CC1c1ccccc1,H37Rv,,,BACTEC,MIC bound,>12.8 µg/mL
N#Cc1cnc(C(=O)c2ccccc2O)cn1,H37Rv,,6.25 µg/mL,resazurin,inhibition,5%
O=c1cc(-c2ccccc2)oc2cc(I)ccc12,H37Rv,,,,MIC,>12.5 µg/mL
Fc1ccc(-n2cc(CSC3c4ccccc4-c4ccccc43)nn2)cc1Cl,H37Rv,,,broth dilution,MIC99,246 µM
O=C1CSC(c2ccccc2)N1C(=O)NCCCN1c2ccccc2Sc2ccccc21,H37Rv,,50 µg/mL,agar,inhibition,35%
CC(=O)Nc1ncccc1C,H37Rv,,,,MIC,>100 µg/mL
N#Cc1cnc(C(=O)c2ccc(Cl)cc2)cn1,H37Rv,,,resazurin,EC50,>6.25 µg/mL
O=C(O)c1ccc(NCc2ccccc2)cc1O,H37Rv,,,,MIC,100 µg/mL
O=c1c2c3c(sc2nc2n1N=C(c1ccc(Cl)cc1)CS2)CCCC3,H37Rv,,6.25 µg/mL,resazurin,inhibition,33%
Cc1cc(C2=NNC(c3ccccc3)C2)ccc1O,H37Rv,,6.25 µg/mL,,inhibition,88%
NC(=O)NC(CCCN=C(N)N)C(=O)O,H37Rv,,,,MIC,>100 µg/mL
COc1ccc(/C=C/C(=O)c2ccc(O)c(C)c2)cc1,H37Rv,,,,MIC,>6.25 µg/mL
CC1=CC(=C2C=CC(=O)C=C2)C=C(C)N1C,H37Rv,,,BACTEC,MIC bound,>12.5 µg/mL
O=C([O-])C1C=Cc2oc3ccccc3c2C1.[Na+],H37Rv,,,,MIC,100 µg/mL
CC(O)C(NC(=O)OCc1ccccc1)C(=O)NC(CO)C(=O)NN,H37Rv,,,BACTEC,MIC bound,>12.8 µg/mL
COc1ccc2oc(=O)n(-c3cccc(Cl)c3)c(=S)c2c1,My 331/88,21 d,,,MIC,32 µM
CCN(CC)CCNc1ccc(COC(=O)NC)c2sc3ccccc3c(=O)c12,H37Rv,,,BACTEC,MIC bound,≤12.5 µg/mL
O=C(NCCCN1c2ccccc2Sc2ccccc21)N1C(=O)/C(=C\c2ccccc2Br)SC1c1ccccc1Br,H37Rv,,25 µg/mL,agar,inhibition,29%
Nc1ccc(O)c(C(=O)/C=C/c2ccccc2)c1,H37Rv,,,,MIC,>12.5 µg/mL
Cc1cc(C2=NNC(c3ccc(N(C)C)cc3)C2)ccc1O,H37Rv,,,,MIC,6.25 µg/mL
NC(=S)c1cnc(C(=O)c2ccc(Cl)cc2)cn1,H37Rv,,,resazurin,MIC,>12.5 µg/mL
CC(=O)Nc1ccc(/C=N/NC(=S)Nc2cccc3cccnc23)cc1,H37Rv,,,BACTEC,MIC bound,>12.5 µg/mL
O=C(O)c1ccccc1O,H37Rv,,,,MIC,>100 µg/mL
O=S(=O)(Cc1cn(-c2ccc(F)cc2)nn1)C1c2ccccc2-c2ccccc21,Specimen 192,,,broth dilution,MIC99,123 µM
Fc1ccc2oc(=S)n(-c3ccccc3)c(=S)c2c1,My 331/88,21 d,,,MIC,4 µM
O=S1(=O)CS(=O)(=O)OCCCCCO1,H37Rv,,,BACTEC,MIC,≥12.5 µg/mL
CCOc1cc(O)c(C(=O)/C=C/c2cc(OC)c(OC)c(OC)c2)c(O)c1,H37Rv,,12.5 µg/mL,,inhibition,0%
CC(C)[C@H](NC(=O)[C@@H]1CCCN1C(=O)OCc1ccccc1)C(=O)O,H37Rv,,,BACTEC,MIC bound,>12.5 µg/mL
Cc1c(Cc2cccc(C(F)(F)F)c2)c(=O)n2c([nH]c3ccccc32)c1C#N,H37Rv,,,resazurin,MIC90,>128 µg/mL
CCN(C(=O)CCC(=O)O)c1c(C)c(C)c(C)c(Br)c1C,H37Rv,,,,MIC,>100 µg/mL
O=c1oc2ccc(Cl)cc2c(=S)n1-c1ccc(C(F)(F)F)cc1,My 331/88,14 d,,,MIC,4 µM
Cc1cc(C(=O)/C=C/c2ccccc2Cl)ccc1O,H37Rv,,,,MIC,>6.25 µg/mL
C[C@@H]1CO[C@@H]2C3=C(C(=O)C=CC3=O)[C@@H]3OC(=O)[C@H]4CC[C@H]5[C@H]1CC[C@]25[C@@H]43,H37Rv,,12.5 µg/mL,BACTEC,inhibition,20%
CN(C)c1ccc(/C=C/C(=O)C(=O)O)cc1,H37Rv,,,,MIC,>100 µg/mL
Cc1cc(=O)c2c(=O)[nH][nH]c2[nH]1,H37Rv,,12.5 µg/mL,BACTEC,inhibition,20%
O=c1cc[nH]c2c(Cl)cccc12,H37Rv,,,,MIC,>100 µg/mL
O=c1cc(-c2ccccc2)oc2ccc(I)cc12,H37Rv,,12.5 µg/mL,,inhibition,27%
COc1ccc2oc(=O)n(-c3ccccc3)c(=S)c2c1,My 331/88,21 d,,,MIC,32 µM
COC(=O)c1cnc(C(=O)c2ccccc2)cn1,H37Rv,,6.25 µg/mL,resazurin,inhibition,48%
COc1ccc(-c2cc(=O)c3cc(I)ccc3o2)cc1,H37Rv,,,,MIC,>12.5 µg/mL
CCOc1ccc(C(C2=C(O)c3ccccc3C(=O)C2=O)C2=C(O)c3ccccc3C(=O)C2=O)cc1OC,H37Rv,,,BACTEC,MIC,≥12.8 µg/mL
COc1cccc(/C=C2/SC(c3cccc(OC)c3)N(C(=O)NCCCN3c4ccccc4Sc4ccccc43)C2=O)c1,H37Rv,,25 µg/mL,agar,inhibition,30%
COc1ccc(-n2cc(CNC3c4ccccc4-c4ccccc43)nn2)cc1,Specimen 192,,,broth dilution,MIC99,136 µM
COc1ccc2cc1-c1cc(ccc1O)C[C@H]1c3cc4c(cc3CCN1C)Oc1c(OC)cc3c(c1O4)[C@@H](C2)N(C)CC3,H37Rv-PZA-R ATCC 35828,,,resazurin,MIC,6.2 µg/mL
COc1ccc2oc(=S)n(-c3ccc(Cl)cc3)c(=S)c2c1,My 331/88,21 d,,,MIC,16 µM
NC(=O)c1cc(O)ccc1O,H37Rv,,,,MIC,>100 µg/mL
O=C(/N=C/c1cccc(Br)c1)NCCCN1c2ccccc2Sc2ccccc21,H37Rv,,50 µg/mL,agar,inhibition,50%
[O-][n+]1nc2ccccc2c2ccccc21,H37Rv,,,BACTEC,MIC bound,>12.5 µg/mL
CCCCOC(=O)CC(=O)OCCCC,H37Rv,,,,MIC,>100 µg/mL
S=C1SCN(Cc2ccccc2)CN1Cc1ccco1,H37Rv,,12.5 µg/mL,BACTEC,inhibition,8%
O=C(Nc1ccccc1)C(=O)Nc1ccccc1,H37Rv,,,,MIC,>100 µg/mL
COc1cc(-n2cc(CS(=O)(=O)C3c4ccccc4-c4ccccc43)nn2)cc(OC)c1OC,Specimen 192,,,broth dilution,MIC99,52.35 µM
COc1cc2oc3c(c(=O)c2c(O)c1/C=C/C(C)C)C(C=C(C)C)Oc1cc(O)ccc1-3,EMB-R,,,,MIC,>12.5 µg/mL
COc1ccc2cc1-c1cc(cc(Br)c1O)C[C@H]1c3cc4c(cc3CCN1C)Oc1c(OC)cc3c(c1O4)[C@H](C2)N(C)CC3,H37Rv,,,resazurin,MIC,3.1 µg/mL
Cc1cc(C(=O)/C=C/c2ccc(F)cc2)ccc1O,H37Rv,,6.25 µg/mL,,inhibition,94%
CO[C@H]1/C=C/O[C@@]2(C)Oc3c(C)c(O)c4c(O)c(c(/C=N/N5CCN(C6CCCC6)CC5)c(O)c4c3C2=O)NC(=O)/C(C)=C\C=C\[C@H](C)[C@H](O)[C@@H](C)[C@@H](O)[C@@H](C)[C@H](O)[C@@H]1C,Isolate 880902 rifampicin-resistant,,,,MIC,>32 µg/mL
CCCCOc1nc(N)nc(N(CC)CCO)n1,H37Rv,,,,MIC,100 µg/mL
CC(C)CC1=C(N(C)C)C(=O)C=C(N(C)C)C1=O,H37Rv,,,BACTEC,MIC bound,>128 µg/mL
CCOC(=O)c1cnc(C(C)(C)C)[nH]1,H37Rv,,6.25 µg/mL,,inhibition,0%
COc1ccc(Cc2c(C)c(C#N)c3[nH]c4ccccc4n3c2=O)cc1,TF274,,,resazurin,MIC90,0.5 µg/mL
Oc1cccc(NC(=S)Nc2cccc(O)c2)c1,H37Rv,,,,MIC,>100 µg/mL
NC(=S)c1cnc(C(=O)c2ccccc2O)cn1,H37Rv,,,resazurin,EC50,<6.25 µg/mL
Cc1ccc(-c2ccccc2)n1-c1ccc(Br)cc1,H37Rv,,,,MIC,100 µg/mL
Fc1ccc(NC(=S)SCc2ccc(Cl)c(Cl)c2)cc1F,H37Rv,,,BACTEC,MIC bound,≤128 µg/mL
NNC(=O)CCc1cnc(C2CCCCC2)[nH]1,H37Rv,,,,MIC,>6.25 µg/mL
C[As](C)c1ccc(-c2ccc3cc(Cl)ccc3n2)cc1,H37Rv,,,,MIC,>100 µg/mL
COC(=O)CNC(=O)c1cnc(C(C)(C)C)[nH]1,H37Rv,,6.25 µg/mL,,inhibition,12%
CC(=O)OC1C(CNC(=O)N(C)N=O)OC(OC2(CNC(=O)N(C)N=O)OC(CNC(=O)N(C)N=O)C(OC(C)=O)C2OC(C)=O)C(OC(C)=O)C1OC(C)=O,H37Rv,,12.5 µg/mL,BACTEC,inhibition,3%
O=c1oc2ccc(Br)cc2c(=S)n1-c1ccc(Br)cc1,My 331/88,14 d,,,MIC,1 µM
COc1ccc(C(=O)c2cccc(C)c2O)c(C(=O)O)c1OC,H37Rv,,,,MIC,>100 µg/mL
NNC(=O)c1cnc(C2CCCCC2)[nH]1,H37Rv,,,,MIC,>6.25 µg/mL
c1ccc(N2CN(c3ccccn3)CN(c3ccccn3)C2)nc1,H37Rv,,,,MIC,>100 µg/mL
O=C(/C=C/c1ccc(Br)cc1)c1ccccc1O,H37Rv,,,,MIC,>12.5 µg/mL
Cc1occc1C(=S)Nc1ccc(Cl)c(COC(C)(C)C)c1,H37Rv,,,BACTEC,MIC bound,≤12.5 µg/mL
O=C1CSC(c2ccc(O)cc2)N1C(=O)NCCCN1c2ccccc2Sc2ccccc21,H37Rv,,50 µg/mL,agar,inhibition,70%
C[N+](C)(C)CC(=O)NC(=O)N/N=C/C(CC#N)CN(Cc1ccccc1)Cc1ccccc1.[Cl-],H37Rv,,,BACTEC,MIC bound,>12.5 µg/mL
COC(=O)CCc1cnc[nH]1,H37Rv,,6.25 µg/mL,,inhibition,24%
O=c1c(O)c(-c2ccccc2)oc2ccc(Br)cc12,H37Rv,,,,MIC,>12.5 µg/mL
Nc1nc(N)nc(Nc2ccc(C(=O)O)cc2)n1,H37Rv,,,,MIC,>100 µg/mL
N#Cc1cnc(C(=O)c2ccc(O)cc2)cn1,H37Rv,,6.25 µg/mL,resazurin,inhibition,3%
COc1cc(-n2cc(CNC3c4ccccc4-c4ccccc43)nn2)cc(OC)c1OC,H37Rv,,,broth dilution,MIC99,58.34 µM
NNC(=O)C[n+]1ccccc1,H37Rv,,12.5 µg/mL,BACTEC,inhibition,15%
CCOC(=O)c1cnc(C(C)C)[nH]1,H37Rv,,,,MIC,>6.25 µg/mL
Fc1ccc(-n2cc(CNC3c4ccccc4-c4ccccc43)nn2)cc1,Specimen 192,,,broth dilution,MIC99,281 µM
Nc1ccc(S(=O)(=O)c2ccc(N)cc2S(N)(=O)=O)cc1,H37Rv,,,,MIC,>100 µg/mL
COc1ccc(/C=C/C(=O)c2cc(Cl)ccc2O)cc1,H37Rv,,,,MIC,>12.5 µg/mL
Cl.c1ccc(N2CCNCC2)cc1,H37Rv,,,,MIC,>100 µg/mL
Cc1cc(C2=NNC(c3cccc([N+](=O)[O-])c3)C2)ccc1O,H37Rv,,6.25 µg/mL,,inhibition,88%
NC(=O)c1cnc(C(=O)c2ccc(Cl)cc2)cn1,H37Rv,,,resazurin,EC50,>6.25 µg/mL
Cc1ccc(/C=C2/SC(c3ccc(C)cc3)N(C(=O)NCCCN3c4ccccc4Sc4ccccc43)C2=O)cc1,H37Rv,,50 µg/mL,agar,inhibition,45%
O=[N+]([O-])c1ccccc1-n1cc(CNC2c3ccccc3-c3ccccc32)nn1,Specimen 192,,,broth dilution,MIC99,>261 µM

For reference, 8 entries again:

compound,strain or isolate,conditions,dose,read by,endpoint,result
CCOC(=O)c1cnc(C(C)(C)C)[nH]1,H37Rv,,6.25 µg/mL,,inhibition,0%
O=S1(=O)CS(=O)(=O)OCCCCCO1,H37Rv,,,BACTEC,MIC,≥12.5 µg/mL
COc1cc(-n2cc(CS(=O)(=O)C3c4ccccc4-c4ccccc43)nn2)cc(OC)c1OC,Specimen 192,,,broth dilution,MIC99,52.35 µM
Cc1cc(C2=NNC(c3cccc([N+](=O)[O-])c3)C2)ccc1O,H37Rv,,6.25 µg/mL,,inhibition,88%
Cl.c1ccc(N2CCNCC2)cc1,H37Rv,,,,MIC,>100 µg/mL
CC(C)[C@H](NC(=O)[C@@H]1CCCN1C(=O)OCc1ccccc1)C(=O)O,H37Rv,,,BACTEC,MIC bound,>12.5 µg/mL
COc1ccc2oc(=O)n(-c3cccc(Cl)c3)c(=S)c2c1,My 331/88,21 d,,,MIC,32 µM
CCCCOc1nc(N)nc(N(CC)CCO)n1,H37Rv,,,,MIC,100 µg/mL